PubChem BioAssay AID1259414 | Drosophila RNAi Screening Center | 2018

- Screen: 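Host factors increasing or decreasing Wolbachia levels in cultured fly cells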 (primary screen)
- Cells: Drosophila JW18 cells infected with Wolbachia
- Reagent: long dsRNA against Drosophila genes, 0.25 µg dsRNA per well of a 384-well plate
- Timing: 5 days
- Treatment: cells persistently infected with Wolbachia before knock-down; no added drug
- Measured: 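Automated imaging of bacterial rRNA staining divided by host cell count, reported as plate-normalised robust z-score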
- Direction: Wolbachia per cell robust z: higher = more Wolbachia per host cell than the plate typical
- Active means: 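Hit when robust z is 1.5 or more, or -1.5 or less, in at least two of three replicates; excludes dsRNAs with several or no targets, genes not expressed in JW18 and well A1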
The deposit covers about 24,000 reagents; this is a random part of those that have a named target and a result. Of all reagents, about 1,210 (5%) got an active call. 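Inactive calls also include excluded dsRNAs with several or no targets, genes unexpressed in JW18, and well A1, regardless of score.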 A number with no mark means an inactive call. No sequences are given here.

gene,amplicon,"Wolbachia per cell robust z, rep 1","Wolbachia per cell robust z, rep 2","Wolbachia per cell robust z, rep 3"
Gr57a (Gustatory receptor 57a),DRSC06401,-0.839,1.07,0.615
CG12155,DRSC23294,0.868,0.46,-1.36
boil (boilerman),DRSC17872,-0.723,0.0764,0.105
Spn88Eb (Serpin 88Eb),DRSC16093,-0.198,-5.98,1.27
CG18417,DRSC10319,0.636,1.27,-0.541
CG18417,DRSC23997,-0.468,-0.288,-0.586
obe (obelus),DRSC15736,-0.781,0.395,-0.623
CG4707,DRSC04483,0.535,-1.72,1
Arfip (Arfaptin),DRSC15179,0.378,0.158,-0.676
Arfip (Arfaptin),DRSC27068,-0.744,-1.01,-1.17
Uhg3 (U snoRNA host gene 3),DRSC22963,0.826,-2.15,-1.44
cmpy (crimpy),DRSC11701,-0.912,0.484,-0.562
cmpy (crimpy),DRSC41310,-0.954,0.965,0.556
CG17508,DRSC07771,-3.31,-1.21,-0.899
Pa1 (PTIP associated 1),DRSC19422,1.17,0.369,0.572
Pa1 (PTIP associated 1),DRSC29046,-2.28,0.958,-0.0155
CG4730,DRSC15633,0.274,-0.18,1.3
CG4730,DRSC24561,-0.797,-0.838,-1.44
Ctr1A (Copper transporter 1A),DRSC18336,-0.16,-0.433,0.24
Vha16-2 (Vacuolar H[+] ATPase 16kD subunit 2),DRSC10873,-0.0305,-0.339,-2.3
Vha16-2 (Vacuolar H[+] ATPase 16kD subunit 2),DRSC25504,-0.00732,0.378,-1.13
CG11398,DRSC18625,-0.242,-1.61,0.625
CG44153,DRSC02228,-0.551,0.287,0.88
CG44153,DRSC02229,0.695,-5.19,0.0646
CG44153,DRSC02231,0.861,-4.52,-0.486
CG44153,DRSC02233,0.538,0.0508,-0.113
CG44153,DRSC02902,-3.88,-3.28,-0.174
CG44153,DRSC02903,-0.393,0.0191,-1.02
CG44153,DRSC28467,-1.09,-0.891,-0.994
CG44153,DRSC38921,-2.63,0.216,-0.384
Mrp4 (Multidrug resistance protein 4),DRSC14931,0.475,-0.87,-0.245
Mrp4 (Multidrug resistance protein 4),DRSC28151,0.178,0.233,-0.605
Mrm2 (Mitochondrial rRNA methyltransferase 2),DRSC14310,-0.227,-0.359,-0.0783
Mrm2 (Mitochondrial rRNA methyltransferase 2),DRSC27849,0.906,-0.551,-2.35
vir (virilizer),DRSC04377,0.621,-0.304,-0.219
vir (virilizer),DRSC26525,0.822,0.336,0.762
wry (weary),DRSC00352,-0.638,-1.6,-0.882
wry (weary),DRSC00456,0.122,0.947,1.13
wry (weary),DRSC22414,0.453,-0.144,-2.16
TM9SF3 (Transmembrane 9 superfamily protein member 3),DRSC09747,1.04,0.577,0.941
CG9825,DRSC04569,0.895,-5.23,1.14
CG9825,DRSC25634,-2.27,-1.28,-1.39
CG14196,DRSC19551,1.53,-0.554,0.332
CG14196,DRSC26030,0.607,-0.14,-0.465
CG30192,DRSC03977,-1.45,-1.09,-0.585

No new results follow: entries from further up.
gene,amplicon,"Wolbachia per cell robust z, rep 1","Wolbachia per cell robust z, rep 2","Wolbachia per cell robust z, rep 3"
CG4730,DRSC24561,-0.797,-0.838,-1.44
Ctr1A (Copper transporter 1A),DRSC18336,-0.16,-0.433,0.24
Vha16-2 (Vacuolar H[+] ATPase 16kD subunit 2),DRSC10873,-0.0305,-0.339,-2.3
Vha16-2 (Vacuolar H[+] ATPase 16kD subunit 2),DRSC25504,-0.00732,0.378,-1.13
CG11398,DRSC18625,-0.242,-1.61,0.625
CG44153,DRSC02228,-0.551,0.287,0.88
CG44153,DRSC02229,0.695,-5.19,0.0646
CG44153,DRSC02231,0.861,-4.52,-0.486
CG44153,DRSC02233,0.538,0.0508,-0.113
CG44153,DRSC02902,-3.88,-3.28,-0.174
CG44153,DRSC02903,-0.393,0.0191,-1.02

The results go on:
gene,amplicon,"Wolbachia per cell robust z, rep 1","Wolbachia per cell robust z, rep 2","Wolbachia per cell robust z, rep 3"
fax (failed axon connections),DRSC11345,-2.53 (active),-2.45,-0.78
fax (failed axon connections),DRSC27842,0.371,-1.86,-0.55
PAN2 (Poly(A)-binding protein-dependent poly(A) ribonuclease 2),DRSC07115,0.0619,0.377,1.3
CG15578,DRSC18066,0.954,-0.26,0.298
Traf6 (TNF-receptor-associated factor 6),DRSC18725,-0.866,-0.882,0.279
CG16704,DRSC00475,0.0112,-0.0293,0.366
CG13082,DRSC02186,-0.0627,-0.069,-0.023
CG13082,DRSC26734,-2.23,1.25,-0.527
CG9029,DRSC03129,-0.836,-1.17,-1.75
CG41378,DRSC38719,-0.0905,-0.453,-0.788
CycA (Cyclin A),DRSC09132,3.53 (active),2.92,3.68
CycA (Cyclin A),DRSC11123,5.53 (active),3.8,5.41
CG9777,DRSC20208,1.42,1.34,-0.614
z (zeste),DRSC23134,-0.416,-0.227,0.553
z (zeste),DRSC40820,-1.22,-2.06,-1.22
Surf6 (Surfeit 6),DRSC15588,0.52,0.0239,0.948
Surf6 (Surfeit 6),DRSC29437,-1.7 (active),-0.415,-7.43
Surf6 (Surfeit 6),DRSC41271,-1.56,-0.0137,-0.427
CG15721,DRSC19688,-1.95,-1.88,1.34
Sec15 (Secretory 15),DRSC16179,0.932,-2.88,0.323
Sec15 (Secretory 15),DRSC29670,1.11,-2.86,1.54
Tssk (Testis-specific serine/threonine kinase),DRSC14784,0.579,-0.0112,0.861
Tssk (Testis-specific serine/threonine kinase),DRSC26679,0.685,0.449,-0.000801
Tssk (Testis-specific serine/threonine kinase),DRSC41614,0.581,-0.336,0.275
